Test system: A/NWS/G70C (H1N9)
Settings: plaque reduction

## O=C1/C(=C/c2ccc(-c3ccc(F)cc3)o2)SC(=S)N1C1CCCCC1 [A1, (Z)-3-Cyclohexyl-5-{[5-(4-fluorophenyl)furan-2-yl]-methylene}-2-thioxothiazolidin-4-one]
  EC50: 1 nM
